Measured values from several laboratories, pooled; numbers as filed in NIAID ChemDB.

All rows: whole-cell or culture tests; species: Aspergillus fumigatus; read-out: zone

Rows are shuffled and stem from different studies. Zone: diameter of growth inhibition. An empty or dashed field is not shown.

compound | strain or isolate | method | tested at | value
CCC(C)CCCCCCCCCCC(=O)N[C@H]1C[C@@H](O)[C@@H](NCCN2CCOCC2)NC(=O)C2[C@@H](O)[C@@H](C)CN2C(=O)C(CO)NC(=O)C([C@H](O)C(O)c2ccc(O)cc2)NC(=O)NC(=O)[C@@H]2C[C@@H](O)CN2C(=O)[C@H]([C@@H](C)O)NC1=O | AF-1 | agar | 2 mg/mL | 20 mm
O=C(c1cn2cnnc2nn1)c1nn(-c2ccccc2)cc1-c1ccc([N+](=O)[O-])cc1 | - | agar diffusion / agar | 2.5 mg/mL | 7 mm
COc1cc(CN(CC(O)C[N+](C)(C)C)[C@@H]2[C@@H](O)[C@H](O[C@@H]3O[C@H](COCC(=O)O)[C@@H](O[C@@H]4C[C@H](COCC(=O)O)[C@@H](C)[C@H](O)[C@H]4N(Cc4ccc(O)c(OC)c4)CC(O)C[N+](C)(C)C)[C@H](O)[C@H]3N(Cc3ccc(O)c(OC)c3)CC(O)C[N+](C)(C)C)[C@@H](COCC(=O)O)O[C@H]2C)ccc1O | RCMB 02568 | agar diffusion | 1 mg/mL | 17.5 mm
CCC(C)CCCCCCCCCCC(=O)N[C@H]1C[C@@H](O)[C@@H](SCC(=O)OC)NC(=O)C2[C@@H](O)[C@@H](C)CN2C(=O)C(CO)NC(=O)C([C@H](O)C(O)c2ccc(O)cc2)NC(=O)NC(=O)[C@@H]2C[C@@H](O)CN2C(=O)[C@H]([C@@H](C)O)NC1=O | AF-1 | agar | 2 mg/mL | 24 mm
CN(C)/C=C/C(=O)c1nn(-c2ccccc2)cc1-c1ccc([N+](=O)[O-])cc1 | - | agar diffusion / agar | 1.25 mg/mL | 3 mm
C[C@@H]1[C@@H](COCC(=O)O)C[C@@H](O[C@H]2[C@H](O)[C@@H](N(Cc3ccc(Cl)cc3Cl)CC(O)C[N+](C)(C)C)[C@H](O[C@H]3[C@H](O)[C@@H](N(Cc4ccc(Cl)cc4Cl)CC(O)C[N+](C)(C)C)[C@H](C)O[C@@H]3COCC(=O)O)O[C@@H]2COCC(=O)O)[C@H](N(Cc2ccc(Cl)cc2Cl)CC(O)C[N+](C)(C)C)[C@H]1O | RCMB 02568 | agar diffusion | 1 mg/mL | 17.9 mm
CC(=O)c1ccc(-c2nn(-c3ccc(C)cc3)cc2-c2ccc([N+](=O)[O-])cc2)nc1C | - | agar diffusion / agar | 2.5 mg/mL | 0 mm
CCC(C)CCCCCCCCCCC(=O)N[C@H]1C[C@@H](O)[C@@H](Sc2ccccc2)NC(=O)C2[C@@H](O)[C@@H](C)CN2C(=O)C(CO)NC(=O)C([C@H](O)C(O)c2ccc(O)cc2)NC(=O)NC(=O)[C@@H]2C[C@@H](O)CN2C(=O)[C@H]([C@@H](C)O)NC1=O | AF-1 | agar | 5 mg/mL | 21 mm
C[C@@H]1[C@@H](COCC(=O)O)C[C@@H](O[C@H]2[C@H](O)[C@@H](N(Cc3ccc([N+](=O)[O-])cc3)CC(O)C[N+](C)(C)C)[C@H](O[C@H]3[C@H](O)[C@@H](N(Cc4ccc([N+](=O)[O-])cc4)CC(O)C[N+](C)(C)C)[C@H](C)O[C@@H]3COCC(=O)O)O[C@@H]2COCC(=O)O)[C@H](N(Cc2ccc([N+](=O)[O-])cc2)CC(O)C[N+](C)(C)C)[C@H]1O | RCMB 02568 | agar diffusion | 1 mg/mL | 20.5 mm
CCC(C)CCCCCCCCCCC(=O)N[C@H]1C[C@@H](O)[C@@H](Sc2ccccc2)NC(=O)C2[C@@H](O)[C@@H](C)CN2C(=O)C(CO)NC(=O)C([C@H](O)C(Sc2ccccc2)c2ccc(O)cc2)NC(=O)NC(=O)[C@@H]2C[C@@H](O)CN2C(=O)[C@H]([C@@H](C)O)NC1=O | AF-1 | agar | 2 mg/mL | 15 mm
C[C@@H]1[C@@H](COCC(=O)O)C[C@@H](O[C@H]2[C@H](O)[C@@H](N(Cc3cccc(Cl)c3)CC(O)C[N+](C)(C)C)[C@H](O[C@H]3[C@H](O)[C@@H](N(Cc4cccc(Cl)c4)CC(O)C[N+](C)(C)C)[C@H](C)O[C@@H]3COCC(=O)O)O[C@@H]2COCC(=O)O)[C@H](N(Cc2cccc(Cl)c2)CC(O)C[N+](C)(C)C)[C@H]1O | RCMB 02568 | agar diffusion | 1 mg/mL | 18.2 mm
CCOC(=O)C1=NN(c2ccccc2)C2=Nc3nccc(-c4nn(-c5ccccc5)cc4-c4ccc([N+](=O)[O-])cc4)c3C(=O)C12 | - | agar diffusion / agar | 1.25 mg/mL | 9 mm
CCOC(=O)C[C@H](O)C[C@H](O)CC[C@@H]1[C@@H]2C(=CCC[C@@H]2C(=O)O[C@H](C)CC)C=C[C@@H]1C | - | agar diffusion | 0.5 mg/disc | 0 mm
CCC(C)CCCCCCCCCCC(=O)N[C@H]1C[C@@H](O)[C@@H](OC)NC(=O)C2[C@@H](O)[C@@H](C)CN2C(=O)C(CO)NC(=O)C([C@H](O)C(O)c2ccc(O)cc2)NC(=O)NC(=O)[C@@H]2C[C@@H](O)CN2C(=O)[C@H]([C@@H](C)O)NC1=O | AF-1 | agar | 1 mg/mL | 25 mm
CC(=O)C1=NN(c2ccccc2)C2=Nc3nccc(-c4nn(-c5ccccc5)cc4-c4ccc([N+](=O)[O-])cc4)c3C(=O)C12 | - | agar diffusion / agar | 5 mg/mL | 20 mm

Repeating the first 2 entries:

compound	strain or isolate	method	tested at	value
CCC(C)CCCCCCCCCCC(=O)N[C@H]1C[C@@H](O)[C@@H](NCCN2CCOCC2)NC(=O)C2[C@@H](O)[C@@H](C)CN2C(=O)C(CO)NC(=O)C([C@H](O)C(O)c2ccc(O)cc2)NC(=O)NC(=O)[C@@H]2C[C@@H](O)CN2C(=O)[C@H]([C@@H](C)O)NC1=O	AF-1	agar	2 mg/mL	20 mm
O=C(c1cn2cnnc2nn1)c1nn(-c2ccccc2)cc1-c1ccc([N+](=O)[O-])cc1	-	agar diffusion / agar	2.5 mg/mL	7 mm